{
  "sequences": {"note": "The chains behind the UniProt entries cited, without tags or fusion partners. Residues count along the entry.", "UniProt P0DPI0, 1-448 limits assumed": "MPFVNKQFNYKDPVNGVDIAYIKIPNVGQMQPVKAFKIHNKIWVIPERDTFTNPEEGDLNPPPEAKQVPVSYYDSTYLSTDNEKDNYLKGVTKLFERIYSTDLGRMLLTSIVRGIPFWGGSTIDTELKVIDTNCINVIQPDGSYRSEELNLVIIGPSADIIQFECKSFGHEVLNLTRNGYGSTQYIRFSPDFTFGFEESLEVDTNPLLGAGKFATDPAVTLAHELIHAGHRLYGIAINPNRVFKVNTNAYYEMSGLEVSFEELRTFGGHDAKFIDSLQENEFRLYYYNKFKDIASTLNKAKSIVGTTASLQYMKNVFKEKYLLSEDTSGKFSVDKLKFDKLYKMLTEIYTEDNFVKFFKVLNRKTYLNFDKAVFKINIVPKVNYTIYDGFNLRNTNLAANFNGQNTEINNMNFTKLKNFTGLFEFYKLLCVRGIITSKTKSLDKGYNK"},
  "source": "paper PMC10150623",
  "about": "(Journal of Enzyme Inhibition and Medicinal Chemistry, 2023)",
  "biological_target": "BoNT/A LC (1–448 aa) (Clostridium botulinum, UniProt P0DPI0)",
  "data": [
    {"smiles": "N=C(N)NCCC[C@H](NC(=O)[C@@H](N)CCCNC(=N)N)C(=O)NCC(=O)N[C@@H](Cc1c[nH]c2ccccc12)C(=O)O", "note": "[RRGW]", "values": [
      {"measurement": "Ki", "value": 790, "unit": "nM"}
    ]}
  ]
}
